For this assay, the system named is A431 cells. As to the kind of experiment: Antitumor effect in subcutaneous tumor-bearing model of A431. To be noted: 15 kBq/mouse (100 μg/mouse as cetuximab) tail vein, 37 day point, P<0.05 or P<0.01. In kind it is in vivo.

For “Comparative Example 1: Conjugate with cetuximab by using 225Ac-labeled DOTA-DBCO; contains a thiourea bond [reference compound]”, the “antitumor effect versus antibody control group and Vehicle group” value is listed as “significant difference in the antitumor effect”.

The values above are taken from patent US20240207463A1, “RADIOACTIVE COMPLEX OF ANTI-EGFR ANTIBODY, AND RADIOPHARMACEUTICAL” (NIHON MEDI-PHYSICS CO., LTD., priority 2021, published 2024).
